Pooled drug test results. Numbers come from NIAID ChemDB, via PubChem.

Common to all: tests on isolated targets; organism: Hepatitis C virus; protein: HCV NS3 protease; endpoint: Ki

Conditions beyond the fields shown may differ between rows.

structure | result
CC(C)[C@H](NC(=O)[C@H](CCC(=O)O)NC(=O)[C@@H](N)CC(=O)O)C(=O)N[C@H](C(=O)N1CCC[C@H]1C(=O)NC1(B(O)O)CC1)C(C)C | 1.6 µM
CC[C@H](C)[C@H](NC(=O)[C@H](CC(C)C)NC(=O)[C@@H](CCC(=O)O)NC(=O)[C@H](CCC(=O)O)NC(=O)CCC(=O)O)C(=O)N[C@@H](CC1CCCCC1)C(=O)N[C@@H](Cc1ccccc1)C(=O)O | 1.5 µM
CC(=O)N[C@H](C(=O)N[C@@H](CCC(=O)OC(C)(C)C)C(=O)N[C@@H](CC1CCCCC1)C(=O)NC(CC(F)F)C(=O)C(=O)O)C(c1ccccc1)c1ccccc1 | 4.6 µM
CC[C@H](C)[C@H](NC(=O)[C@H](CC(=O)O)NC(=O)[C@@H](N)CC(=O)O)C(=O)N[C@H](C(=O)N1CCC[C@H]1C(=O)N[C@@H](CS)C(=O)O)C(C)C | 79 µM
CCC[C@H](NC(=O)C1CCCN1C(=O)[C@@H](NC(=O)[C@@H](NC(=O)[C@H](CCC(=O)O)NC(=O)[C@@H](N)CC(=O)O)C(C)C)C(C)C)B1OC2CC3CC(C3(C)C)[C@]2(C)O1 | 0.006 µM
CC[C@H](C)[C@H](NC(=O)[C@H](CC(C)C)NC(=O)[C@@H](CCC(=O)O)NC(=O)CCC(=O)O)C(=O)N[C@@H](CC1CCCCC1)C(=O)NC1(C(=O)O)CC1 | 1.8 µM
CC(=O)N[C@@H](CC(=O)O)C(=O)N[C@@H](CCC(=O)O)C(=O)N[C@H](C(=O)N[C@@H](CCC(=O)O)C(=O)N[C@@H](CC1CCCCC1)C(=O)NC(CC(F)F)C(=O)C(=O)O)C(c1ccccc1)c1ccccc1 | 0.00001 µM
CC[C@H](NC(C)=O)C(=O)N[C@@H](CCC(=O)O)C(=O)N[C@H](C(=O)N[C@@H](CCC(=O)O)C(=O)N[C@@H](CC1CCCCC1)C(=O)N[C@@H](CC(F)F)C(=O)O)C(c1ccccc1)c1ccccc1 | 0.03 µM
CC(C)C[C@H](NC(=O)[C@H](CCC(=O)O)NC(=O)OC(C)(C)C)C(=O)N[C@@H](CC(F)F)C(=O)C(=O)O | 18.5 µM
CC(C)[C@H](NC(=O)[C@H](CCC(=O)O)NC(=O)[C@@H](N)CC(=O)O)C(=O)N[C@H](C(=O)N1CCC[C@H]1C(=O)N[C@@H](CCc1ccc(C(F)(F)F)cc1)B1O[C@@H]2C[C@@H]3C[C@H](C3(C)C)[C@]2(C)O1)C(C)C | 0.002 µM
CCCC[C@H](NC(=O)[C@@H]1Cc2ccccc2CN1C(=O)[C@H](CS)NC(=O)[C@H](CC(C)C)NC(=O)[C@@H](N)C(C)C)C(=O)N[C@@H](CO)C(=O)N[C@@H](Cc1ccc(O)cc1)C(=O)O | >1000 µM
CCCC(NC(=O)[C@H](CC1CCCCC1)NC(=O)[C@@H](NC(=O)[C@H](CC(C)C)NC(=O)[C@@H](CCC(=O)O)NC(=O)CCC(=O)O)[C@@H](C)CC)C(=O)C(F)(F)C(F)(F)F | 2.9 µM
CC(=O)N[C@@H](C(=O)O)C(=O)N[C@@H](CCC(=O)O)C(=O)N[C@H](C(=O)N[C@@H](CCC(=O)O)C(=O)N[C@@H](CC1CCCCC1)C(=O)N[C@H](C=O)CC(F)F)C(c1ccccc1)c1ccccc1 | 0.0005 µM
C=CC[C@H](NC(=O)[C@H](CC1CCCCC1)NC(=O)[C@@H](NC(=O)[C@H](CC(C)C)NC(=O)[C@@H](CCC(=O)O)NC(=O)CCC(=O)O)[C@@H](C)CC)C(=O)O | 3 µM
C[C@@H](O)[C@H](NC(=O)[C@H](CO)NC(=O)[C@H](CS)NC(=O)[C@@H](N)CC(=O)O)C(=O)N1CCC[C@H]1C(=O)N[C@@H](CS)C(=O)O | 180 µM
CCCC(NC(=O)[C@H](CC1CCCCC1)NC(=O)[C@@H](NC(=O)[C@H](CC(C)C)NC(=O)[C@@H](CCC(=O)O)NC(=O)[C@H](CCC(=O)O)NC(=O)CCC(=O)O)[C@@H](C)CC)C(=O)c1nn[nH]n1 | 0.3 µM
C=CC1C[C@]1(NC(=O)C1C[C@@H](Oc2cc(-c3ccccc3)nc3ccccc23)CN1C(=O)[C@@H](NC(=O)[C@@H](NC(=O)[C@@H](CCC(=O)O)NC(=O)[C@H](CC(=O)O)NC(C)=O)C1CCCCC1)C(C)(C)C)C(=O)O | <0.01 µM
CCC[C@H](NC(=O)[C@H](CC1CCCCC1)NC(=O)[C@@H](NC(=O)[C@H](CC(C)C)NC(=O)[C@@H](CCC(=O)O)NC(=O)[C@H](CCC(=O)O)NC(=O)CCC(=O)O)[C@@H](C)CC)c1nn[nH]n1 | 0.156 µM
CC(=O)N[C@@H](C(=O)O)C(=O)N[C@@H](CCC(=O)O)C(=O)N[C@H](C(=O)N[C@@H](CCC(=O)O)C(=O)N[C@@H](CC1CCCCC1)C(=O)N[C@@H](CC(F)F)C(=O)C(=O)O)C(c1ccccc1)c1ccccc1 | 0.00001 µM

The first 2 rows once more:

{"structure": "CC(C)[C@H](NC(=O)[C@H](CCC(=O)O)NC(=O)[C@@H](N)CC(=O)O)C(=O)N[C@H](C(=O)N1CCC[C@H]1C(=O)NC1(B(O)O)CC1)C(C)C", "result": "1.6 µM"}
{"structure": "CC[C@H](C)[C@H](NC(=O)[C@H](CC(C)C)NC(=O)[C@@H](CCC(=O)O)NC(=O)[C@H](CCC(=O)O)NC(=O)CCC(=O)O)C(=O)N[C@@H](CC1CCCCC1)C(=O)N[C@@H](Cc1ccccc1)C(=O)O", "result": "1.5 µM"}